Results on two proteins are retold here after publication PMC10491678, “Structural and functional analyses of Burkholderia pseudomallei BPSL1038 reveal a Cas-2/VapD nuclease sub-family” (Communications Biology, 2023).

As usually defined, the stoichiometry N is a count of units in the complex or per binding partner.

The data set “crystal structure” deals with the molecule itself. Kind of data set: crystal structure.
Data set [1] deals with the molecule itself. Kind of data set: SEC; HiLoad 16/600 Superdex 75 pg, 25 mM Tris-HCl pH 7.5, 100 mM NaCl. A general note: In gel filtration, larger molecules generally elute earlier.

B1: recombinant BPSL1038-selenomethionine substituted protein (smBPSL1038) (natural protein)
chain: MAGNLVIVCRDQDADAFDQLMQEYGSFQTRLSSTAWYLNMNIVPETLQEDILERVGKYTTLYIFEATSVTYNTIDSNAAETLSTLFGE
modifications: selenomethionine in place of methionine
Consider B1, for which the binding result in “crystal structure” is reported as “binds”.

B2: recombinant native BPSL1038 protein with N-terminus 6X-His tag (rBPSL1038) (natural protein)
chain: B1 chain
In the case of B2, in data set [1], the “stoichiometry N” value was determined as 2.
